The data set deals with spinal cord neurons (SCNs). The data set is described as follows: Spontaneous calcium oscillation (SCO) measurement, FLIPR Tetra, primary cultured spinal cord neurons. The class given is cell-based, C57BL/6 mice. Particulars: 6-8 DIV. Here is the method: SCN cultures were performed as described previously. The dissociated neurons were planted into poly-L-lysine-coated 35 mm Petri dishes, 96-well plates at densities of 2 × 10^3 cells/dish for patch clamp, 2.25 × 10^5 and 2 × 10^3 cells/well for Ca^2+ imaging and neurite outgrowth experiments, respectively. Cells at 6–8 DIVs (days in vitro) were used to measure K^+ and Na^+ currents, membrane potential, or intracellular Ca^2+ concentration ([Ca^2+]i).
The intracellular Ca^2+ concentration [Ca^2+]i of SCNs was measured using FLIPR^Tetra® system (Molecular Devices, Sunnyvale, CA, USA) as described previously.
All data were presented as mean ± SEM. Graphing and data analysis were performed using GraphPad Prism software (Version 6.0, San Diego, CA, USA). Concentration–response curves were fitted by a nonlinear logistic equation. The IC50 values and 95% confidence intervals (CI) were determined by nonlinear regression using GraphPad Prism software. Statistical significance between different groups was calculated using an ANOVA and, where appropriate, a Dunnett′s multiple comparison test. A p-value below 0.05 was considered statistically significant.

As to “BmK NSPK: new short-chain scorpion peptide purified from Buthus martensii Karsch venom, Kv channel inhibitor, sequence by Edman degradation (VGKNVICIHSGQCLIPCIDAGMRFGICKNGICDCTPKG)”, the “Hill slope, SCO amplitude concentration-response” value is given as 1.0 and the “Hill slope, SCO frequency concentration-response” value was 1.0.

The values above are taken from publication PMC7824859, “BmK NSPK, a Potent Potassium Channel Inhibitor from Scorpion Buthus martensii Karsch, Promotes Neurite Outgrowth via NGF/TrkA Signaling Pathway” (Toxins, 2021).
